Results of unrelated studies side by side (data: NIAID ChemDB).

Common to all: whole-cell or culture tests; species: HIV-1

Two numbers with a dash give a range or band. An empty or dashed field is not shown. ECn: concentration that inhibits the pathogen or its effect by n%. Neighbouring rows are from separate reports.

| SMILES | cells | setting | changes | method | endpoint | strain | result |
|---|---|---|---|---|---|---|---|
| CCN1C(C)C(=O)Nc2c([N+](=O)[O-])cc(Cl)cc2S1(=O)=O | MT-4 |  |  | cytopathic effect / MTT | EC50 |  | >105 µM |
| Cc1cccc(C)c1OCC(=O)N[C@@H](Cc1ccccc1)[C@@H](O)C[C@H](Cc1ccccc1)NC(=O)[C@H](C(C)C)N1CCCNC1=O | PBMC |  | PR-L10R M46I L63P V82T I84V | p24 | EC50 | HXB2 | <0.33 µM |
| O=c1[nH]cnc2c1ncn2[C@H]1CC[C@@H](CO)O1 | CEM |  | RT-L100I | syncytia | EC50 | IIIB TIBO R82150-resistant (RT L100I) | 15 µM |
| CC(C)[C@H](NC(=O)N(C)Cc1ccccn1)C(=O)N[C@@H](Cc1ccccc1)[C@H](O)[C@H](O)[C@H](Cc1ccccc1)NC(=O)[C@@H](NC(=O)N(C)Cc1ccccn1)C(C)C | MT-4 |  |  | p24 | EC50 | NL4-3 | 0.2 µM |
| O=c1ccn([C@H]2C[C@H](F)[C@@H](CO)O2)c(=O)[nH]1 | MT-4 |  |  | cytopathic effect | EC50 | IIIB | 0.04 µM |
| C=C1[C@H](CO)[C@@H](O)C[C@@H]1n1cnc2c(=O)[nH]c(N)nc21 | MT-4 |  | K103N/Y181C | MTT | EC50 | RES056 | 0.035 µM |
| COc1cnc(-n2ncnc2CO)c2[nH]cc(C(=O)C(=O)N3CCc4c(cccc4-c4ccccn4)C3)c12 | HeLa |  |  | luciferase | EC50 |  | <0.1 µM |
| Nc1ccn([C@H]2CC[C@@H](CO)O2)c(=O)n1 | U-937 |  |  | p24 | EC50 | U455 | 0.05 µM |
| Cc1cc(C)cc(S(=O)(=O)c2c(C(=O)NNCCO)[nH]c3ccc(Cl)cc23)c1 | MT-4 |  | RT-Y181C | cytopathic effect / MTT | EC50 |  | 0.01 µM |
| CC1C(=O)Nc2ccc(Cl)cc2S(=O)(=O)N1CC1OC1(C)C | MT-4 |  |  | cytopathic effect / MTT | EC50 |  | 5 µM |
| COc1ccc(S(=O)(=O)/N=c2\sc(C(C)(C)C)c(C)n2C)cc1 | MT-4 |  |  | cytopathic effect / MTT | EC50 | IIIB | >25 µM |
| C[C@@H]1O[C@@H](Oc2c(-c3cc(O)c(O)c(O)c3)oc3cc(O)cc(O)c3c2=O)[C@H](O)[C@H](O)[C@H]1O | MT-4 |  |  | cytopathic effect | EC50 | IIIB | >100 µg/mL |
| Cc1c(C(C)(C)C)s/c(=N\S(=O)(=O)c2cc(Cl)ccc2[N+](=O)[O-])n1C | MT-4 |  |  | cytopathic effect / MTT | EC50 | IIIB | 0.36 µM |
| CCc1cn([C@H]2C[C@H](N=[N+]=[N-])[C@@H](CO)O2)c(=O)[nH]c1=O | MT-4 |  |  | cytopathic effect | EC50 | IIIB | 64 µM |
| Cc1ccnc2c1NC(=O)c1cccnc1N2C1CC1 | MT-4 |  | RT-M41L T215Y |  | EC95 |  | 0.2 µM |
| CC(C)=CCN1C(C)Cn2c(=O)n(CC=C(C)C)c3cc(Cl)cc(c32)S1(=O)=O | MT-4 |  |  | cytopathic effect / MTT | EC50 |  | >63 µM |
| Cc1cc(C#N)cc(C)c1Oc1nc(N/N=C/C2CCN(Cc3ccc(S(=O)(=O)NC4CCOCC4)cc3)CC2)nc2ccsc12 | MT-4 |  |  | MTT | EC50 | IIIB | >4.42 µM |
| C[C@@H]1O[C@@H](Oc2c(-c3ccc(O)c(O)c3)oc3cc(O)cc(O)c3c2=O)[C@H](O)[C@H](O)[C@H]1O | MT-4 |  |  | cytopathic effect | EC50 | IIIB | >100 µg/mL |
| CCOC(=O)CNS(=O)(=O)c1cc(Cl)ccc1[N+](=O)[O-] | MT-4 |  |  | cytopathic effect / MTT | EC50 |  | 73 µM |
| CC(C)CN(C[C@@H](O)[C@H](Cc1ccccc1)NC(=O)[C@@H](NC(=O)CNCc1cccc(F)c1)C(C)(C)C)S(=O)(=O)c1ccc(N)cc1 | PBMC |  |  | p24 | EC90 | NL4-3 | 0.02 µM |
| CC1CN(C(=O)C(Cc2c[nH]c3c(C(C)(C)C)cccc23)NC(=O)c2ccc([N+](=O)[O-])cc2)CCN1C(=O)C1CC1 | PBMC |  |  | p24 | EC50 | BAL R5 | <10 µM |
| Cc1cn([C@H]2C[C@H](N=[N+]=[N-])[C@@H](CO)O2)c(=O)[nH]c1=O | CEM |  | RT-Y181C | syncytia | EC50 | IIIB-Nevirapine(0.1)(RT-Y181C) | 0.002 µM |
| Cc1nc(C(=O)N[C@@H](C)C(C)(C)C)c(C)c(-c2ccc3c(c2)SCCO3)c1[C@H](OC(C)(C)C)C(=O)O | C8166 |  |  | luciferase | EC50 | NL4-3 | 1.7 nM |
| [N-]=[N+]=NCCCCCCCCCCCC(=O)OC[C@@H]1O[C@H](n2cc(F)c(N)nc2=O)CS1 | MAGI |  |  | single cycle / luminescence | EC50 | BaL | 0.2 µM |
| Nc1ccn([C@H]2CC[C@@H](CO)O2)c(=O)n1 | CEM |  | RT-V179N | syncytia | EC50 | IIIB-Pyridinone(0.1)(RT-V179N | 0.02 µM |
| CCc1cn([C@H]2CC[C@@H](CO)O2)c(=O)[nH]c1=O | MT-4 |  |  | cytopathic effect | EC50 | IIIB | >625 µM |
| Cc1ccnc2c1NC(=O)c1cccnc1N2C1CC1 | MT-4 |  | K103N/Y181C | MTT | EC50 | RES056 | >15 µM |
| Cc1c(C(C)C)s/c(=N\S(=O)(=O)c2cc(C#N)ccc2C#N)n1C | MT-4 |  |  | cytopathic effect / MTT | EC50 | IIIB | 0.0018 µM |
| C[C@H]1/C=C/[C@@]2(C)CC[C@@H](C(C)(C)O)[C@@H]2[C@@H](O)C[C@](C)(O)/C=C/C1 | U87 (CD4+ CCR5+ CXCR4+) + U87 |  |  | cytopathic effect / XTT | EC50 | 95BRRJ010 X4 | ~15 µM |
| Nc1nc(N)c(Cl)c(OCCOCP(=O)(O)O)n1 | CEM |  |  | syncytia | EC50 | IIIB | 0.93 µg/mL |
| Cc1cc(/C=C/C#N)cc(C)c1Oc1nc(N/N=C/c2ccc(C#N)cc2)nc2ccsc12 | MT-4 |  |  | MTT | EC50 | IIIB | 0.0944 µM |
| CCCN(C)C(=O)Oc1nsnc1-c1c(Cl)cccc1Cl | MOLT-4 |  |  | cytopathic effect | EC50 | HE | 0.011 µM |
| Cc1cn([C@H]2C[C@H](N=[N+]=[N-])[C@@H](CO)O2)c(=O)[nH]c1=O | CEM | 4 d |  | p24 | EC50 | pNL4-3 | 0.0045 µM |
| CCCCCCN(C)C(=O)Oc1nsnc1-c1c(Cl)cccc1Cl | MT-4 |  |  | cytopathic effect | EC50 | IIIB | 0.115 µM |
| Cc1cn([C@H]2C[C@H](N=[N+]=[N-])[C@@H](CO)O2)c(=O)[nH]c1=O | MT-4 |  |  | cytopathic effect / MTT | EC50 | IIIB/LAI | 0.003 µM |
| CC(C)(C)OC(=O)N[C@@H](Cc1ccccc1)[C@@H](O)C[C@@H](Cc1ccc(OCCN2CCOCC2)cc1)C(=O)N[C@H]1c2ccccc2C[C@H]1O | MT-4 |  |  | p24 | EC50 | NL4-3 | 0.01 µM |
| Cc1nc(NC(=O)C2CCC3(CC2)CC3)c(C)c(-c2ccc(Cl)cc2)c1[C@H](OC(C)(C)C)C(=O)O | C8166 |  |  | luciferase | EC50 | NL4-3 | 15 nM |
| COc1cccc(S(=O)(=O)/N=c2\sc(C(C)(C)C)c(C)n2C)c1 | MT-4 |  |  | cytopathic effect / MTT | EC50 | IIIB | 11 µM |
| Oc1ccc(-c2c(-c3cc(O)cc(O)c3)oc3ccccc23)cc1 |  |  |  | single cycle | EC50 |  | 25.9–47.3 µM |
| Cc1cn([C@H]2CC[C@@H](CO)O2)c(=O)[nH]c1=O | MT-4 |  |  | cytopathic effect | EC50 | IIIB | 6 µM |
| Cc1cc(C#N)cc(C)c1Oc1nc(N/N=C/C2CCN(Cc3ccc(C#N)cc3)CC2)nc2ccsc12 | MT-4 |  | K103N/Y181C | MTT | EC50 | RES056 | >23.6 µM |
| O=c1[nH]cnc2c1ncn2[C@H]1CC[C@@H](CO)O1 | CEM |  | RT-L100I | syncytia | EC50 | IIIB-BHAP)(0.1)(RT-L100I | 11 µM |
| CO[C@H]1O[C@@H](n2ccc(=O)[nH]c2=O)C[C@@H]1N=[N+]=[N-] | MT-4 |  |  | cytopathic effect | EC50 | IIIB | 0.36 µM |
| Cc1cc(=O)oc2c3c(ccc12)OC(C)(C)[C@H](OC(=O)C12CCC(C)(C(=O)O1)C2(C)C)[C@@H]3OC(=O)C12CCC(C)(C(=O)O1)C2(C)C | H9 |  |  | p24 | EC50 | IIIB | 0.0059 µM |
| CC(C)(C)NC(=O)[C@@H]1C[C@@H]2CCCC[C@@H]2CN1C[C@@H](O)[C@H](Cc1ccccc1)NC(=O)O[C@H]1CO[C@H]2OCC[C@H]21 | MT-4 |  |  | antigen | EC50 | IIIB | <0.046 µM |
| CCOCn1c(Cc2ccccc2)c(C(C)C)c(=O)[nH]c1=O | MT-4 |  |  | cytopathic effect / MTT | EC50 | IIIB | 0.01 µM |
| C[C@]12CC[C@H](O)C[C@@H]1CC[C@@H]1[C@@H]2CC[C@]2(C)C(=O)[C@H](Br)C[C@@H]12 | CEM |  |  | RT activity | EC50 | LAV | 1.1 µM |
| Cc1c(C(C)(C)C)s/c(=N\S(=O)(=O)c2ccccc2O)n1C | MT-4 |  |  | cytopathic effect / MTT | EC50 | IIIB | 2.3 µM |
| Cc1cccc(S(=O)(=O)c2c(C(=O)NNCCO)[nH]c3ccc(Cl)cc23)c1 | Macrophage + Macrophages |  |  | p24 | EC50 | BAL R5 | 2.1 µM |
| CCn1c(=O)c(C)cn([C@@H]2O[C@H](CO[Si](C)(C)C(C)(C)C)C3(OS(=O)(=O)C=C3N)[C@H]2O[Si](C)(C)C(C)(C)C)c1=O | CEM |  | RT-L100I | syncytia | EC50 | IIIB TIBO R82150-resistant (RT L100I) | 0.09 µM |
| O=C(O)c1cn(C2CC2)c2c(OC(F)F)c(N3CCN(c4ncccn4)CC3)c(F)cc2c1=O | MT-4 |  |  | cytopathic effect / MTT | EC50 | IIIB | 1.7 µM |
| Cc1ccc(-c2nc(C)c([C@H](OC(C)(C)C)C(=O)O)c(-c3ccc4occc4c3)c2C)cc1C | C8166 |  |  | luciferase | EC50 | NL4-3 | 17 nM |
| Cc1ccc(S(=O)(=O)c2c(C(=O)NNCCO)[nH]c3ccc(Cl)cc23)c(C)c1 | MT-4 + C8166 |  |  | cytopathic effect / MTT | EC50 | IIIB | 0.08 µM |
| CC(C)c1s/c(=N\S(=O)(=O)c2cc(C#N)ccc2C#N)n(C)c1Cl | MT-4 |  |  | cytopathic effect / MTT | EC50 | IIIB | 0.0036 µM |
| C=CCSSCC=C | CEM |  |  | syncytia | EC50 |  | 34 µM |
| CC1C(=O)Nc2ccc(Cl)cc2S(=O)(=O)N1Cc1cc(Cl)cc(Cl)c1 | MT-4 |  |  | cytopathic effect / MTT | EC50 |  | 1.5 µM |
| Cc1cc(C#N)cc(C)c1Oc1nc(N/N=C/C2CCN(Cc3ccc(S(=O)(=O)NC4CC4)cc3)CC2)nc2ccsc12 | MT-4 |  |  | MTT | EC50 | IIIB | >4.03 µM |
| Nc1ccn([C@H]2CC[C@@H](CO)O2)c(=O)n1 | MT-4 |  |  | cytopathic effect | EC50 | IIIB | 0.3 µM |
| Nc1nc2c(ncn2[C@H]2C=C[C@@H](CO)C2)c(=O)[nH]1 | MT-2 | 5 d |  | cytopathic effect / XTT / RT activity | EC50 | NL4-3 WT | 0.3 µM |
| O=C(O)c1cc(Cc2ccc(O)c(C(=O)O)c2)ccc1O | CEM |  |  | cytopathic effect | EC50 |  | >200 µM |
| Cc1c(C(C)C)s/c(=N\S(=O)(=O)c2cc(Cl)ccc2C#N)n1C | MT-4 |  |  | cytopathic effect / MTT | EC50 | IIIB | 0.0017 µM |
| COc1cc(C(=O)OC[C@H]2O[C@@H](Oc3ccc(O)c4cccc(O)c34)[C@H](O)[C@@H](O)[C@@H]2O)cc(OC)c1O | MT-4 |  |  | cytopathic effect | EC50 | IIIB | >100 µg/mL |
| Cc1cn([C@H]2C[C@H](N=[N+]=[N-])[C@@H](CO)O2)c(=O)[nH]c1=O | MT-4 |  | K103N/Y181C | MTT | EC50 | RES056 | 0.017 µM |
| CCN(C(C)C(=O)O)S(=O)(=O)c1cc(Cl)ccc1N | MT-4 |  |  | cytopathic effect / MTT | EC50 |  | >200 µM |
| Nc1ccn([C@H]2CC[C@@H](CO)O2)c(=O)n1 | CEM |  | RT-Y181C | syncytia | EC50 | IIIB nevirapine-resistant (RT Y181C) | 0.02 µM |
| C[C@H]1C(=O)Nc2ccc(Cl)cc2S(=O)(=O)N1Cc1c(F)cccc1F | MT-4 |  |  | cytopathic effect / MTT | EC50 |  | 0.07 µM |
| CCn1cc(C(=O)O)c(=O)c2cc(F)c(N3CCN(c4ccccc4OC)CC3)c(OC(F)F)c21 | PBMC |  |  | p24 | EC50 | IIIB | 0.32 µM |
| CCCCC#CCSc1ccccc1OC(C)=O | MT-2 |  |  |  | EC50 | 4602 ritonavir RES | 5 µM |
| C=CCOC(=O)CCCCCCCCC | CEM |  |  | syncytia | EC50 |  | 25 µM |
| Cc1cn([C@@H]2O[C@H](CO[Si](C)(C)C(C)(C)C)[C@@]3(OS(=O)(=O)C=C3N)[C@H]2O[Si](C)(C)C(C)(C)C)c(=O)[nH]c1=O | CEM |  | RT-L100I | syncytia | EC50 | IIIB TIBO R82150-resistant (RT L100I) | 0.21 µM |
| CC1C(=O)Nc2c([N+](=O)[O-])cc(Cl)cc2S(=O)(=O)N1CC1OC1(C)C | MT-4 |  |  | cytopathic effect / MTT | EC50 |  | >200 µM |
| CCCCCCCCCCCCCC(=O)OC[C@@H]1O[C@H](n2cc(F)c(N)nc2=O)CS1 | MAGI |  |  | single cycle / luminescence | EC50 | IIIB | 0.1 µM |
| Cc1nnc(C(C)C)n1C1C[C@H]2CC[C@@H](C1)N2CC[C@H](NC(=O)C1CCC(F)(F)CC1)c1ccccc1 | PBMC |  |  | p24 / ELISA | EC50 | CC1/85 maraviroc-resistant isolate | >20 µM |
| Cc1c(N)nc(N)nc1OCCOCP(=O)(O)O | CEM |  |  | syncytia | EC50 | IIIB | 0.09 µg/mL |